Reference: PMC8866119, “Omicron escapes the majority of existing SARS-CoV-2 neutralizing antibodies” (2021)

Target: SARS-CoV-2 wild-type RBD (SARS-CoV-2) (UniProt P0DTC2)
Assay: BLI

BRII-196
Kd: 1.83 nM
koff: 0.000708 s⁻¹
